Target: T1, NEDD8 (human, UniProt Q15843 1-76)
T1 construct: also called hNEDD8; source: E. coli, purified (Ni-NTA, HRV 3C cleavage, Superdex 75)
Assay: ITC
Conditions: both partners purified

B1: OtDUB_(170–264) (the UBD) (domain or fragment)
chain: VNFLSENRMITSAAAALADTLLKNNNRITEGVLVDRIFDNKILSVQEKQQLLNNLLDNHIKENKSLTKESLTRMLASTHFVQQQANVLLNEKFNK
notes: source: E. coli Rosetta DE3, purified (glutathione resin, SEC)
  Kd: 31 ± 14 nM

Source: paper PMC7214410, “A deubiquitylase with an unusually high-affinity ubiquitin-binding domain from the scrub typhus pathogen Orientia tsutsugamushi” (Nature Communications, 2020)
